Test results: patent US20140287419A1, “Compositions Having Dicamba Decarboxylase Activity and Methods of Use” (priority 2013, published 2014)

B1: G27S: point mutation G27S of SEQ ID NO:109 (protein)
chain: MAQGKVALEEHFAIPETLQDSAGFVPSDYWKELQHRLLDIQDTRLKLMDAHGIETMILSLNAPAVQAIPDRRKAIEIARRANDVLAEECAKRPDRFLAFAALPLQDPDAATEELQRCVNDLGFVGALVNGFSQEGDGQTPLYYDLPQYRPFWGEVEKLDVPFYLHPRNPLPQDSRIYDGHPWLLGPTWAFAQETAVHALRLMASGLFDEHPRLNIILGHMGEGLPYMMWRIDHRVAWVKLPPRYPAKRRFMDYFNENFHITTSGNFRTQTLIDAILEIGADRILFSTDWPFENIDHASDWFNATSIAEADRVKIGRTNARRLFKLDGA
modifications: Dicamba decarboxylase variant clone DC.4.032
B2: L38I: point mutation L38I of SEQ ID NO:109 (protein)
chain: B1 chain with S27G, L38I
modifications: Dicamba decarboxylase variant clone DC.4.032
B3: D42M: point mutation D42M of SEQ ID NO:109 (protein)
chain: B1 chain with S27G, D42M
modifications: Dicamba decarboxylase variant clone DC.4.032
B4: G52E: point mutation G52E of SEQ ID NO:109 (protein)
chain: B1 chain with S27G, G52E
modifications: Dicamba decarboxylase variant clone DC.4.032
B5: N61A: point mutation N61A of SEQ ID NO:109 (protein)
chain: B1 chain with S27G, N61A
modifications: Dicamba decarboxylase variant clone DC.4.032
B6: N61S: point mutation N61S of SEQ ID NO:109 (protein)
chain: B1 chain with S27G, N61S
modifications: Dicamba decarboxylase variant clone DC.4.032
B7: A64G: point mutation A64G of SEQ ID NO:109 (protein)
chain: B1 chain with S27G, A64G
modifications: Dicamba decarboxylase variant clone DC.4.032
B8: N214Q: point mutation N214Q of SEQ ID NO:109 (protein)
chain: B1 chain with S27G, N214Q
modifications: Dicamba decarboxylase variant clone DC.4.032
B9: V235I: point mutation V235I of SEQ ID NO:109 (protein)
chain: B1 chain with S27G, V235I
modifications: Dicamba decarboxylase variant clone DC.4.032
B10: L240E: point mutation L240E of SEQ ID NO:109 (protein)
chain: B1 chain with S27G, L240E
modifications: Dicamba decarboxylase variant clone DC.4.032
B11: S298A: point mutation S298A of SEQ ID NO:109 (protein)
chain: B1 chain with S27G, S298A
modifications: Dicamba decarboxylase variant clone DC.4.032
B12: N302A: point mutation N302A of SEQ ID NO:109 (protein)
chain: B1 chain with S27G, N302A
modifications: Dicamba decarboxylase variant clone DC.4.032
B13: G327Q: point mutation G327Q of SEQ ID NO:109 (protein)
chain: B1 chain with S27G, G327Q
modifications: Dicamba decarboxylase variant clone DC.4.032
B14: A328D: point mutation A328D of SEQ ID NO:109 (protein)
chain: B1 chain with S27G, A328D
modifications: Dicamba decarboxylase variant clone DC.4.032

Experiment: Saturation mutagenesis of SEQ ID NO:109, dicamba decarboxylation activity of point mutants
Conditions: rank of the point mutant among saturation mutagenesis variants of SEQ ID NO:109

First: B1
Second: B2
The “Variant Ranking by Activity” value of the first is lower: 19 for the first, 30 for the second.

Compared with B3, B4 is lower in “Variant Ranking by Activity” value: 10 for the first, 1 for the second.

Compared with B5, B6 is higher in “Variant Ranking by Activity” value: 3 for the first, 7 for the second.

Compared with B7, B8 is higher in “Variant Ranking by Activity” value: 6 for the first, 41 for the second.

First: B9
Second: B10
The “Variant Ranking by Activity” value of the first is higher: 44 for the first, 22 for the second.

Going from B11 to B12, the “Variant Ranking by Activity” value rises from 21 to 33.

First: B13
Second: B14
The “Variant Ranking by Activity” value of the first is lower: 4 for the first, 13 for the second.

Where a chain is given by its changes, count along the chain named. Numbers in names are those of the source.
